According to US20230233483A1, “COMPOUND AND METHOD FOR THE TREATMENT OF CORONAVIRUSES” (Apteeus, priority 2020, published 2023):

Test: Cmax in human lung tissue of patients (literature)
Format: in vivo

## CC(C)(C)CC(C)(C)c1ccc(O)c(Cc2ccc(Cl)cc2Cl)c1 [clofoctol, 2-(2,4-Dichlorobenzyl)-4-(1,1,3,3-tetramethylbutyl)phenol]
EC95 about 21-25 µM vs Cmax about 250 µM
  EC95 times less than Cmax in human lung tissue: about 10 times
IC95 about 9-11 µM vs Cmax about 250 µM
  IC95 times less than Cmax in human lung tissue: about 25 times
